A mixed list of measured activities; the numbers were collected in NIAID ChemDB.

Common to all: enzyme or target tests; agent: HIV-1; target: Reverse transcriptase

Neighbouring rows are from separate reports. Two numbers with a dash give a range or band. Blank or dashed fields: not listed here. ICn is the concentration giving n% inhibition.

smiles	mutations	read-out	read by	strain	result
O=C(c1cc2ccccc2[nH]1)N1CCN(c2ncccc2NCC2CC2)CC1	-	IC50	nucleotide incorporation	-	<100 µM
c1csc(-c2nnc3c4ccccc4c(N4CCc5ccccc5C4)nn23)c1	-	IC90	RT activity / fluorescence	98US_MSC5016	>100 µM
CCN1c2ncc(CCOc3ccc(NC(=O)CCC(=O)O)c4ccccc34)cc2C(=O)N(C)c2cccnc21	RT-V106A	IC50	nucleotide incorporation / radiometric	-	>1 µM
Cc1ccc(-n2c(SCC(=O)Nc3ccc(S(=O)(=O)NC(C(=O)O)C(C)C)cc3Cl)nnc2C(F)F)c2c1CCCC2	-	IC50	nucleotide incorporation / radiometric	-	<0.05 µM
CC(C)(C#Cc1ccc(NC(=O)CSc2nnnn2-c2ccc(C3CC3)cc2Cl)c(Cl)c1)C(=O)NS(=O)(=O)c1ccccc1	RT-K103 Y181C	IC50	PicoGreen / fluorescence	-	<1 µM
CCN1c2ncc(CCOc3cccc4c3C(C)C(=O)N4C)cc2C(=O)N(C)c2cccnc21	RT-K103N Y181C	IC50	nucleotide incorporation / radiometric	IIIB	>0.1 µM
Cc1cc(C(=O)O)ccc1NC(=O)CSc1nnc(C(F)F)n1-c1ccc(C)c2c1CCCC2	RT-Y188L	IC50	nucleotide incorporation / radiometric	-	>0.1 µM
Cc1ccc(-n2nnnc2SCC(=O)Nc2ccc(-c3ccc(C(=O)O)cc3)cc2Cl)c(Cl)c1	RT-K103 Y181C	IC50	PicoGreen / fluorescence	-	<1 µM
CCc1ccc(-n2c(Br)nnc2SCC(=O)Nc2ccc(C(=O)NCC(OC)OC)cc2Cl)c2ccccc12	RT-Y188L	IC50	nucleotide incorporation / radiometric	-	>0.1 µM
O=C(COc1ccc(NC(=O)CSc2nnnn2-c2ccc(C3CC3)cc2Cl)c(Cl)c1)NCCc1ccccn1	-	IC50	PicoGreen / fluorescence	WT	<1 µM
CCN1c2ncc(CCOc3ccc(/C=C/C(=O)O)c4ccccc34)cc2C(=O)Nc2c(C)ccnc21	RT-Y188L	IC50	nucleotide incorporation / radiometric	-	>1 µM
COc1cc2[nH]c(C(=O)N3CCN(c4ncccc4NC(C)C)CC3)cc2cc1Br	-	IC50	nucleotide incorporation	-	<100 µM
CC(C)(C)c1ccc(-n2nnnc2SCC(=O)Nc2ccc(NC(=O)c3ccccc3O)cc2Cl)c(Cl)c1	-	IC50	PicoGreen / fluorescence	WT	<1 µM
CCNc1cccnc1N1CCN(C(=O)c2cc3ccccc3o2)CC1	-	IC50	nucleotide incorporation	-	<100 µM
CCN1c2ncc(CCOc3ccc(CC(=O)NN)c4ccccc34)cc2C(=O)N(C)c2ccc(Cl)nc21	RT-V106A	IC50	nucleotide incorporation / radiometric	-	0.1–1 µM
CC(C)(C#Cc1ccc(NC(=O)CSc2nnnn2-c2cc(Cl)ccc2Cl)c(Cl)c1)NC(=O)c1cc[n+]([O-])cc1	RT-K103 Y181C	IC50	PicoGreen / fluorescence	-	<1 µM
CCCc1ccc(-n2c(Br)nnc2SCC(=O)Nc2ccc(S(N)(=O)=O)cc2C)c2ccccc12	-	IC50	nucleotide incorporation / radiometric	-	<0.05 µM
CCN1c2ncc(CCOc3ccc4on(C)c(=O)c4c3)cc2C(=O)Nc2c(C)cc(F)nc21	RT-K103N Y181C	IC50	nucleotide incorporation / radiometric	IIIB	>0.1 µM
NS(=O)(=O)c1ccc(NC(=O)CSc2nnc(C(F)F)n2-c2ccc(C3CCCC3)c3ccccc23)c(Cl)c1	RT-Y181C	IC50	nucleotide incorporation / radiometric	-	<0.05 µM
Cc1cc(-c2ccc(NC(=O)CSc3nnnn3-c3ccc(C(C)(C)C)cc3Cl)c(Cl)c2)ccc1OCC(=O)O	-	IC50	PicoGreen / fluorescence	WT	<1 µM
CCc1ccc(-n2c(Br)nnc2SCC(=O)Nc2ccc(C(=O)N3CCC(O)CC3)cc2Cl)c2ccccc12	RT-Y181C	IC50	nucleotide incorporation / radiometric	-	<0.05 µM
CC(C)(C#Cc1ccc(NC(=O)CSc2nnnn2-c2cc(C(C)(C)C)ccc2Cl)c(Cl)c1)NC(=O)CN1CCNCC1	RT-K103 Y181C	IC50	PicoGreen / fluorescence	-	<1 µM
CCN1c2ncc(CCOc3ccc4c(c3)CNC(=O)N4C)cc2C(=O)N(C)c2cccnc21	-	IC50	nucleotide incorporation / radiometric	IIIB	<0.05 µM
CCc1ccc(-n2c(Br)nnc2SCC(=O)Nc2ccc(C(=O)O)cc2C)c2ccccc12	-	IC50	nucleotide incorporation / radiometric	-	<0.05 µM
CN(C)CCCC(=O)NC(C)(C)C#Cc1ccc(NC(=O)CSc2nnnn2-c2cc(C(F)(F)F)ccc2Cl)c(Cl)c1	RT-K103 Y181C	IC50	PicoGreen / fluorescence	-	<1 µM
CCN1c2ncc(CCOc3cccc4c3CCNC4=O)cc2C(=O)N(C)c2cccnc21	RT-K103N Y181C	IC50	nucleotide incorporation / radiometric	IIIB	0.05–0.1 µM
CCc1ccc(-n2c(Br)nnc2SCC(=O)Nc2ccc(C(=O)NCC(=O)OC)cc2Cl)c2ccccc12	-	IC50	nucleotide incorporation / radiometric	-	<0.05 µM
O=[N+]([O-])c1ccc2c(c1)CN(c1nn3c(C(F)F)nnc3c3ccccc13)CC2	-	IC90	RT activity / fluorescence	IIIB	15.4 µM
Cc1c(C(=O)N2CCN(c3ncccc3NC(C)C)CC2)[nH]c2ccccc12	-	IC50	nucleotide incorporation	-	<100 µM
Cc1cc(S(=O)(=O)O)ccc1NC(=O)CSc1nnc(C(F)F)n1-c1ccc(C)c2c1CCCC2	-	IC50	nucleotide incorporation / radiometric	-	<0.05 µM
CC(C)Nc1cccnc1N1CCN(C(=O)c2cc3cc(OCC(=O)O)ccc3[nH]2)CC1	-	IC50	nucleotide incorporation	-	<100 µM
CC(C)(C)c1ccc(-n2nnnc2SCC(=O)Nc2ccc(-c3ccc(OCCN4CCCC4)cc3)cc2Cl)c(Cl)c1	RT-K103 Y181C	IC50	PicoGreen / fluorescence	-	<1 µM
CCN1c2ncc(CCOc3ccc(C(=O)O)c4ccccc34)cc2C(=O)Nc2c(C)ccnc21	RT-K103N Y181C	IC50	nucleotide incorporation / radiometric	-	0.1–1 µM
Cc1nnc2c3ccccc3c(N3Cc4ccccc4C(C)(C)C3)nn12	-	IC50	RT activity / fluorescence	KER2008	24.5 µM
Cc1cc(S(N)(=O)=O)ccc1NC(=O)CSc1nnc(C(F)F)n1-c1ccc(C)c2c1CCCC2	-	IC50	nucleotide incorporation / radiometric	-	<0.05 µM
CCN1c2ncc(CCOc3ccc(CC(=O)O)c4c3CCCC4)cc2C(=O)N(C)c2ccc(F)nc21	-	IC50	nucleotide incorporation / radiometric	WT	<0.1 µM
CC(C)(C)c1ccc(-n2nnnc2SCC(=O)Nc2ccc(C(=O)Nc3ccncc3)cc2Cl)c(Cl)c1	-	IC50	PicoGreen / fluorescence	WT	<1 µM
CCc1ccc(-n2c(Br)nnc2SCC(=O)Nc2ccc(C(=O)NCCCCO)cc2Cl)c2ccccc12	RT-Y181C	IC50	nucleotide incorporation / radiometric	-	<0.05 µM
CCN1c2ncc(CCOc3ccc(NS(C)(=O)=O)c4ccccc34)cc2C(=O)N(C)c2ccc(F)nc21	-	IC50	nucleotide incorporation / radiometric	WT	<0.1 µM
Cc1cc(C)c2ccccc2c1-n1c(SCC(=O)Nc2ccc(S(N)(=O)=O)cc2Cl)nnc1C(F)(F)F	-	IC50	nucleotide incorporation / radiometric	-	<0.05 µM
O=C(CSc1nnnn1-c1ccc(C2CC2)cc1Cl)Nc1ccc(-c2ccc(OCCN3CCS(=O)(=O)CC3)cc2)c(F)c1Cl	RT-K103 Y181C	IC50	PicoGreen / fluorescence	-	<1 µM
c1ccc2c(c1)c(N1CCc3[nH]ccc3C1)nn1c(C3CC3)nnc21	-	IC50	RT activity / fluorescence	IIIB	3.7 µM
CCc1cc(C2CC2)ccc1-n1c(Br)nnc1SCC(=O)Nc1ccc(C(=O)O)cc1Cl	RT-Y188L	IC50	nucleotide incorporation / radiometric	-	>0.1 µM
CC(C)(C)c1ccc(-n2nnnc2SCC(=O)Nc2ccc(NC(=O)Cc3ccccc3[N+](=O)[O-])cc2Cl)c(Cl)c1	-	IC50	PicoGreen / fluorescence	WT	<1 µM
CCOC(=O)CNC(=O)c1ccc(NC(=O)CSc2nnc(Br)n2-c2ccc(C3CC3)c3ccccc23)c(Cl)c1	RT-Y188L	IC50	nucleotide incorporation / radiometric	-	<0.05 µM
CCN1c2ncc(CCOc3ccc4c(c3)CNC(=O)N4)cc2C(=O)N(C)c2cccnc21	RT-K103N Y181C	IC50	nucleotide incorporation / radiometric	IIIB	>0.1 µM
CC(C)Nc1ccc(F)cc1N1CCN(C(=O)c2cc3ccccc3[nH]2)CC1	-	IC50	nucleotide incorporation	-	<100 µM
COC(=O)c1ccc(-c2ccc(NC(=O)CSc3nnnn3-c3ccc(C(C)(C)C)cc3Cl)c(Cl)c2)cc1	RT-K103 Y181C	IC50	PicoGreen / fluorescence	-	<1 µM
NS(=O)(=O)c1ccc(NC(=O)CSc2nnc(Cl)n2-c2ccc(C3CC3)c3ccccc23)c(Cl)c1	-	IC50	nucleotide incorporation / radiometric	-	<0.05 µM
CC(C)(C#Cc1ccc(NC(=O)CSc2nnnn2-c2ccc(C3CC3)cc2Cl)c(Cl)c1)C(=O)NCC1CCCO1	-	IC50	PicoGreen / fluorescence	WT	<1 µM
Cc1cc(S(N)(=O)=O)ccc1NC(=O)COc1ccccc1C(=O)c1cc(Cl)cc(C#N)c1	-	IC50	fluorescence	-	>100 µM
CNc1cccnc1N1CCN(C(=O)c2cc3ccccc3[nH]2)CC1	-	IC50	nucleotide incorporation	-	<100 µM
CCN1c2ncc(CCOc3cccc4c3CC(=O)N4)cc2C(=O)N(C)c2cccnc21	-	IC50	nucleotide incorporation / radiometric	IIIB	0.05–0.1 µM
CC(C)(C#Cc1ccc(NC(=O)CSc2nnnn2-c2ccc(C3CC3)cc2Cl)c(Cl)c1F)OCCN1CCC(F)(F)C1	-	IC50	PicoGreen / fluorescence	WT	<1 µM
CCc1ccc(-n2c(SCC(=O)Nc3ccc(C(=O)O)cc3C)nnc2C(F)F)c2ccccc12	RT-Y181C	IC50	nucleotide incorporation / radiometric	-	>0.1 µM
O=C(O)Cc1ccc(-c2ccc(NC(=O)CSc3nnnn3-c3ccc(C(F)(F)F)cc3Cl)c(Cl)c2)cc1	RT-K103 Y181C	IC50	PicoGreen / fluorescence	-	<1 µM
CCN1c2ncc(CCOc3cccc4c3CN(Cc3ccncc3)C4=O)cc2C(=O)N(C)c2cccnc21	RT-K103N Y181C	IC50	nucleotide incorporation / radiometric	IIIB	0.05–0.1 µM
Cc1ccc(-n2nnnc2SCC(=O)Nc2ccc(-c3cocn3)cc2Cl)c(Cl)c1	RT-K103 Y181C	IC50	PicoGreen / fluorescence	-	<1 µM
CC(C)Nc1cccnc1N1CCN(Cc2cc3cc(F)ccc3[nH]2)CC1	-	IC50	nucleotide incorporation	-	<100 µM
CNS(=O)(=O)c1ccc(NC(=O)CSc2nnc(C(F)F)n2-c2ccc(C)c3c2CCCC3)c(Cl)c1	-	IC50	nucleotide incorporation / radiometric	-	<0.05 µM
CCNc1cccnc1N1CCN(Cc2cc(C)c(O)c(C)c2)CC1	-	IC50	nucleotide incorporation	-	<100 µM
CC(C)(C#Cc1ccc(NC(=O)CSc2nnnn2-c2ccc(C3CC3)cc2Cl)c(Cl)c1)COC(N)=O	-	IC50	PicoGreen / fluorescence	WT	<1 µM
Cc1cc(C2CC2)cc(C)c1-n1c(Br)nnc1SCC(=O)Nc1ccc(C(=O)O)cc1Cl	RT-Y181C	IC50	nucleotide incorporation / radiometric	-	<0.05 µM
O=C(O)Cc1ccc(-c2ccc(NC(=O)CSc3nnnn3-c3ccc4ccccc4c3Cl)c(Cl)c2)cc1	-	IC50	PicoGreen / fluorescence	WT	<1 µM
CCc1ccc(-n2c(C)nnc2SCC(=O)Nc2ccc(S(N)(=O)=O)cc2Cl)c2c1CCCC2	RT-Y188L	IC50	nucleotide incorporation / radiometric	-	>0.1 µM
CC(C)(C#Cc1ccc(NC(=O)CSc2nnnn2-c2cc(C3CC3)ccc2Cl)c(Cl)c1)NC(=O)c1cc[n+]([O-])cc1	-	IC50	PicoGreen / fluorescence	WT	<1 µM
O=C(CSc1nnc(Br)n1-c1ccc(C2CC2)c2ccccc12)Nc1ccc(C(=O)N[C@@H](Cc2ccc(O)cc2)C(=O)O)cc1Cl	-	IC50	nucleotide incorporation / radiometric	-	<0.05 µM

Repeating the final 4 entries:

| smiles | mutations | read-out | read by | strain | result |
|---|---|---|---|---|---|
| O=C(O)Cc1ccc(-c2ccc(NC(=O)CSc3nnnn3-c3ccc4ccccc4c3Cl)c(Cl)c2)cc1 | - | IC50 | PicoGreen / fluorescence | WT | <1 µM |
| CCc1ccc(-n2c(C)nnc2SCC(=O)Nc2ccc(S(N)(=O)=O)cc2Cl)c2c1CCCC2 | RT-Y188L | IC50 | nucleotide incorporation / radiometric | - | >0.1 µM |
| CC(C)(C#Cc1ccc(NC(=O)CSc2nnnn2-c2cc(C3CC3)ccc2Cl)c(Cl)c1)NC(=O)c1cc[n+]([O-])cc1 | - | IC50 | PicoGreen / fluorescence | WT | <1 µM |
| O=C(CSc1nnc(Br)n1-c1ccc(C2CC2)c2ccccc12)Nc1ccc(C(=O)N[C@@H](Cc2ccc(O)cc2)C(=O)O)cc1Cl | - | IC50 | nucleotide incorporation / radiometric | - | <0.05 µM |